system: BR425 cells; experiment: BR425 monoterpene metabolites from two-phase incubation (GC/MS); type: cell-based, Bacillus BR425; parameters: key: ND: Not-detected; Trace; conditions: Organic Phase Limonene, 24 h incubation, average of two experiments

Compound	Metabolites
CC1=CCC(C(C)(C)O)CC1 (stereo not drawn) [alpha-terpineol, α-terpineol]	1.4 mg/L
C=C(C)C1CC=C(C)[C@@H](O)C1 (stereo partly drawn) [carveol]	10.2 mg/L
C=C(C)C1CC=C(C)C(=O)C1 (stereo not drawn) [carvone]	7.5 mg/L

same assay, conditions: Organic Phase α-pinene, 24 h incubation, average of two experiments

Compound	Metabolites
C=C(C)C1CC=C(C)[C@@H](O)C1 (stereo partly drawn) [carveol]	14.3 mg/L
C=C(C)C1CC=C(C)C(=O)C1 (stereo not drawn) [carvone]	Tr
C=C(C)[C@H]1CC=C(C)CC1 [limonene]	1.31 mg/L
CC1(C)C2CC=C(CO)C1C2 (stereo not drawn) [myrtenol]	23.4 mg/L
C=C1C(O)CC2CC1C2(C)C (stereo not drawn) [pinocarveol]	20.5 mg/L
C=C1C(=O)CC2CC1C2(C)C (stereo not drawn) [pinocarvone]	7.2 mg/L
C=C1CCC2CC1C2(C)C (stereo not drawn) [β-pinene]	4.38 mg/L
myrtenal	19.5 mg/L

same assay, conditions: Organic Phase β-pinene, 24 h incubation, average of two experiments

Compound	Metabolites
C=C(C)C1CC=C(C)[C@@H](O)C1 (stereo partly drawn) [carveol]	9.6 mg/L
C=C(C)C1CC=C(C)C(=O)C1 (stereo not drawn) [carvone]	Tr
C=C(C)[C@H]1CC=C(C)CC1 [limonene]	1.1 mg/L
CC1(C)C2CC=C(CO)C1C2 (stereo not drawn) [myrtenol]	17.1 mg/L
C=C1C(O)CC2CC1C2(C)C (stereo not drawn) [pinocarveol]	19.3 mg/L
C=C1C(=O)CC2CC1C2(C)C (stereo not drawn) [pinocarvone]	6.8 mg/L
myrtenal	12.5 mg/L

From patent publication US6344350B1, “Method for degradation of pinenes by bacillus isolates” (priority 1997, dated 2002)
